Measurements reported in PubChem BioAssay AID1259414 (Drosophila RNAi Screening Center, 2018).
Purpose: 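Host factors increasing or decreasing Wolbachia levels in cultured fly cells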 (primary screen). Cells: Drosophila JW18 cells infected with Wolbachia. Reagent: long dsRNA against Drosophila genes, 0.25 µg dsRNA per well of a 384-well plate. Timing: 5 days. Challenge: cells persistently infected with Wolbachia before knock-down; no added drug. Measured: 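Automated imaging of bacterial rRNA staining divided by host cell count, reported as plate-normalised robust z-score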. Direction: Wolbachia per cell robust z: higher = more Wolbachia per host cell than the plate typical. Hit rule: 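Active if absolute robust z reaches 1.5 in two or more of three replicates, leaving out multi- or no-target dsRNAs, genes unexpressed in JW18 and A1 wells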.
The screen tested about 24,000 reagents; below is a random part of those with a known target gene and a result. Over the whole deposit, about 1,210 (5%) got an active call. 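Inactive calls also include excluded dsRNAs with several or no targets, genes unexpressed in JW18, and well A1, regardless of score.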 A number with no mark means an inactive call. A plus sign joins genes that one reagent is predicted to hit. No sequences are given here.

| target | dsRNA | Wolbachia per cell robust z, rep 1 | Wolbachia per cell robust z, rep 2 | Wolbachia per cell robust z, rep 3 |
| --- | --- | --- | --- | --- |
| Orco | DRSC12358 | 1.25 | 0.82 | 0.989 |
| Orco | DRSC27061 | -1.01 | -1.17 | -0.614 |
| pyd | DRSC14387 | -0.673 (active) | -4.97 | -7.2 |
| pyd | DRSC14445 | -2.92 | 1.35 | 0.593 |
| pyd | DRSC14509 | -1.87 | -0.665 | 0.608 |
| pyd | DRSC16547 | -0.222 | -0.106 | 0.33 |
| pyd | DRSC17041 | 0.585 | -0.121 | 0.0364 |
| pyd | DRSC23116 | 0.467 | 0.138 | 0.141 |
| pyd | DRSC26890 | -0.181 | -0.701 | -0.269 |
| Nepl14 | DRSC15631 | -0.526 | 0.582 | -3.95 |
| CR15345 | DRSC18030 | -0.561 | -1.1 | -0.0242 |
| CR15345 | DRSC22712 | -2.5 | 0.508 | 0.586 |
| ovo | DRSC18050 | 3.83 | 0.413 | 0.596 |
| ovo | DRSC25801 | -0.543 | 1.85 | -0.452 |
| ovo | DRSC40794 | 0.011 | -0.49 | -1.23 |
| CG32447 | DRSC11732 | -2.39 | -1.66 | 0.441 |
| CG32447 | DRSC11805 | 0.57 | -0.734 | 0.404 |
| HmgZ | DRSC03888 | -0.614 | 0.381 | -11.9 |
| HmgZ | DRSC04620 | 0.558 | -0.473 | -0.922 |
| Stt3B | DRSC16781 | 0.683 | -1.12 | -4.8 |
| CG6867 | DRSC20013 | 0.314 | -0.699 | 0.178 |
| CG6867 | DRSC25889 | 0.68 | 0.848 | 0.719 |
| CG1792 | DRSC15290 | -0.141 | -0.384 | 0.484 |
| CG1792 | DRSC28745 | 0.252 (active) | -1.56 | -1.51 |
| CG4998 | DRSC10466 | 0.447 | 1.69 | 0.719 |
| CG4998 | DRSC22911 | -0.986 | -6.17 | -0.756 |
| Cyp4g1 | DRSC18459 | -0.89 | -5.14 | -0.44 |
| Cyp4g1 | DRSC29899 | -6.53 | 0.566 | -0.643 |
| CG11741 | DRSC14367 | -0.513 | -0.637 | 0.316 |
| Sps1 | DRSC07549 | 0.591 | 0.984 | 0.915 |
| Sps1 | DRSC41456 | 0.575 | 0.424 | 1.34 |
| CG8950 | DRSC07300 | -2.83 (active) | -3.93 | -0.00177 |
| CG11241 | DRSC11641 | 0.849 | -0.875 | 0.821 |
| CG11241 | DRSC22165 | -1.19 | -0.85 | 0.346 |
| Drsl2 | DRSC08160 | 0.757 | -1.94 | 1.79 |
| Drsl2 | DRSC25541 | -0.354 | -0.883 | -1.25 |
| CG1835 | DRSC20560 | 0.793 | 0.288 | 0.836 |
| Smn | DRSC10223 | 0.374 | -0.326 | -1.45 |
| CG5731 | DRSC02883 | -0.199 | 0.0687 | 0.18 |
| CG5731 | DRSC25969 | -4.25 | 0.112 | -1.22 |
| CG7706 | DRSC16295 | -0.295 | -0.164 | 0.516 |
| CG7706 | DRSC26375 | -0.505 | 0.0716 | -11.3 |
| Or19a | DRSC20684 | 0.214 | 0.259 | 0.687 |
| CG2839 | DRSC00544 | -1.07 | 0.0139 | -3.24 |
| CG2839 | DRSC28090 | 1.4 | 0.591 | 1.07 |
| CG4074 | DRSC11752 | 0.661 | 1.17 | 0.815 |
| CG4074 | DRSC29915 | 1.29 | 1.08 | 0.343 |
| CG42446 + CG17931 | DRSC15293 | -3.56 | -1.65 | 0.166 |
| CG18223 | DRSC10306 | 0.494 | -0.636 | 0.502 |
| CG30392 | DRSC22341 | 0.269 | 0.258 | -1.18 |
| CG2611 | DRSC02710 | 0.11 | -1.58 | 0.643 |
| CG2611 | DRSC26640 | -0.125 | -7.99 | -0.968 |
| CG8768 | DRSC07259 | -0.63 | 0.467 | 0.313 |
| Dhfr | DRSC16646 | -1.31 | 0.158 | -9.7 |
| Dhfr | DRSC29019 | 0.64 | 0.72 | 0.564 |
| ZnT41F | DRSC04850 | 0.0646 | 1.02 | 0.843 |
| tomboy40 | DRSC04918 | 0.663 | -1.35 | 0.493 |
| tomboy40 | DRSC28442 | -1.12 | -0.985 | 0.327 |
| CG42249 | DRSC19383 | 0.0839 | -2.17 | -0.863 |
| CG42249 | DRSC19826 | 0.845 | -0.588 | 0.224 |
| CG42249 | DRSC28504 | 1.9 | 0.623 | 0.865 |
| shd | DRSC11129 | 0.276 | -1.38 | 0.348 |
| CG42445 | DRSC10858 | -6.81 | 0.259 | -0.591 |
| CG13972 | DRSC14715 | -0.812 | 0.0122 | 0.863 |
| CG13972 | DRSC26881 | 0.411 | 0.0283 | -0.611 |
| moody | DRSC18515 | -0.636 (active) | -7.4 | -3.65 |
| CG43367 + asRNA:CR32252 | DRSC21715 | -0.255 | -1.75 | -1.42 |
| AdamTS-B | DRSC18346 | 0.919 | -0.072 | 1.34 |
| AdamTS-B | DRSC27769 | 1.19 | 0.262 | 0.00259 |
| Hil | DRSC05989 | -0.423 | -0.931 | -0.389 |
| Hil | DRSC06395 | 0.0228 | -0.832 | 0.181 |
| Sfp33A3 | DRSC40633 | -1.03 | -0.326 | -0.25 |
| Pdss2 | DRSC11625 | 0.335 | -6.26 | -0.278 |
| cag | DRSC07587 | -1.03 (active) | -5.92 | -2.95 |
| cag | DRSC29225 | -0.431 | 0.44 | 0.292 |
| Qsox1 | DRSC06878 | 0.521 | 0.528 | -0.349 |
| Qsox1 | DRSC29927 | -0.648 | -0.486 | -4.98 |
| 7B2 | DRSC11991 | 0.239 | 0.886 | 0.608 |
| CG43184 | DRSC36531 | -0.88 | -3.41 | -0.296 |
| Sps2 | DRSC03441 | -0.647 | -1.29 | -0.628 |
| Sps2 | DRSC41394 | 0.949 | -0.309 | 0.436 |
| CG1636 | DRSC18111 | 0.0725 | 1.02 | 1.06 |
| CG14913 | DRSC02397 | 0.171 | 0.0391 | 1.06 |
| CG14913 | DRSC27967 | -1.42 (active) | -2.02 | -1.56 |
| Rack1 | DRSC03405 | 0.0684 | 0.857 | 0.285 |
| Rack1 | DRSC23796 | 0.58 (active) | 2.55 | 4.34 |
| net | DRSC00309 | -3.57 | 0.19 | 1.17 |

Entries above whose target name begins with O or o:
| target | dsRNA | Wolbachia per cell robust z, rep 1 | Wolbachia per cell robust z, rep 2 | Wolbachia per cell robust z, rep 3 |
| --- | --- | --- | --- | --- |
| Orco | DRSC12358 | 1.25 | 0.82 | 0.989 |
| Orco | DRSC27061 | -1.01 | -1.17 | -0.614 |
| ovo | DRSC18050 | 3.83 | 0.413 | 0.596 |
| ovo | DRSC25801 | -0.543 | 1.85 | -0.452 |
| ovo | DRSC40794 | 0.011 | -0.49 | -1.23 |
| Or19a | DRSC20684 | 0.214 | 0.259 | 0.687 |
